PubChem BioAssay AID504761, Drosophila RNAi Screening Center – 2011

Test: 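Fly genes whose silencing reduces dengue virus type 2 infection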 (primary screen)
Cell system: D.Mel-2 cells from Drosophila
Reagent: long dsRNA against Drosophila genes
Challenge: infection with dengue virus type 2; dose and infection time not stated
Detection: 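Cells stained for dengue envelope protein and imaged; percent of infected cells per well on duplicate plates, ranked by infection, with stained nuclei counted for cell number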
Scale: infection score: higher = more virus-infected cells; cell count: higher = more cells in the well
Hit rule: 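Low infection ranks in the two replicates (chance level up to 0.065) followed by a retest with a 1.5-fold or larger significant decrease, p below 0.05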
Calls: active = confirmed: knock-down lowers infection; inactive = not picked or not confirmed
In all, the deposit lists about 22,000 reagents; shown is an unselected part of those that have a named target and a result. Of all reagents, 116 (0.52%) are marked active. 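Calls depend on retest data that are not deposited; infection was ranked per plate without normalising between plates; the unit of the infection score is not given.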 Raw values are not corrected between plates. A plus sign joins genes that one reagent is predicted to hit. Not stated in the record: the amount of reagent, the time to read-out.

gene,PubChem SID,"infection score, replicate 1","infection score, replicate 2","cell count, replicate 1","cell count, replicate 2",activity call
vis (vismay),SID104204678,6.88,4.41,4038,5983,inactive
CG17177,SID104190049,0.76,1.61,6071,6353,inactive
Wdfy2 (WD repeat and FYVE domain containing 2),SID104182614,20,10.6,6402,6902,inactive
Wdfy2 (WD repeat and FYVE domain containing 2),SID104208299,3.1,1.22,6705,6324,inactive
CG5902,SID104195704,2.12,2.85,6091,6035,inactive
CG17752,SID104195054,0.58,6.5,7072,6938,inactive
CG17752,SID104204809,5.17,1.16,6269,6288,inactive
Hinfp (Histone H4 transcription factor),SID104198276,5.36,7.07,4904,1981,inactive
Hinfp (Histone H4 transcription factor),SID104203017,2.29,4.51,6159,6387,inactive
Ada (Adenosine deaminase),SID104194255,2.69,8.41,6584,6684,inactive
CG32733 (retired record),SID104197273,0.89,3.11,6375,6658,inactive
CG32733 (retired record),SID104207233,12,15.9,3979,3569,inactive
Spn (Spinophilin),SID104187778,3.88,0.5,6037,5644,inactive
Spn (Spinophilin),SID104188282,7.39,4.86,6371,6442,inactive
Spn (Spinophilin),SID104188283,6.47,25.4,6585,6261,inactive
CG11307,SID104191440,2.04,3.28,5968,6588,inactive
CG11307,SID104205146,0.8,10.3,6626,6064,inactive
CheB98a (Chemosensory protein A 98a),SID104194674,17.1,1.25,5314,6425,inactive
CheB38c (Chemosensory protein B 38c),SID104182181,2.48,16.3,6817,4715,inactive
moi + Tgs1,SID104196163,2.8,1.28,6721,6460,inactive
Ccp84Aa,SID104192378,11.5,21.9,3764,4397,inactive
Ccp84Aa,SID104203660,1.34,2.54,6999,6663,inactive
kairos,SID104202643,3.14,19.6,6079,6330,inactive
kairos,SID104208555,15.5,14.6,6724,5730,inactive

Limited to “cell count, replicate 1”, for 13 of the entries above:
Hinfp (Histone H4 transcription factor) [SID104198276]	4904
Hinfp (Histone H4 transcription factor) [SID104203017]	6159
Ada (Adenosine deaminase) [SID104194255]	6584
CG32733 (retired record) [SID104197273]	6375
CG32733 (retired record) [SID104207233]	3979
Spn (Spinophilin) [SID104187778]	6037
Spn (Spinophilin) [SID104188282]	6371
Spn (Spinophilin) [SID104188283]	6585
CG11307 [SID104191440]	5968
CG11307 [SID104205146]	6626
CheB98a (Chemosensory protein A 98a) [SID104194674]	5314
CheB38c (Chemosensory protein B 38c) [SID104182181]	6817
moi + Tgs1 [SID104196163]	6721

More results:
gene,PubChem SID,"infection score, replicate 1","infection score, replicate 2","cell count, replicate 1","cell count, replicate 2",activity call
CG14823,SID104189986,8.39,16.2,5743,6085,inactive
CG15233,SID104184759,,28.7,26,5735,inactive
CG30114,SID104185499,,0.66,,5757,inactive
CG30114,SID104203979,10.3,3.31,6516,6099,inactive
CG13949,SID104180159,0.89,4.02,5704,5642,inactive
CG13949,SID104204246,3,4.37,6301,6135,inactive
Nelf-E (Negative elongation factor E),SID104190359,5.91,3.91,6587,6571,inactive
CG8321,SID104186940,8.13,23,5940,6087,inactive
meep,SID104187740,2.22,0.96,6039,6050,inactive
meep,SID104204056,1.81,6.22,6347,6075,inactive
l(2)k09913 (lethal (2) k09913),SID104184491,4.61,19.3,6839,5287,inactive
ERp44 (Endoplasmic reticulum protein 44),SID104200007,1.43,1.41,6414,6787,inactive
Sec13 (Secretory 13),SID104193936,72.7,74.3,3354,2160,inactive
CG10286,SID104192312,,5.93,466,1214,inactive
CG11889 + CG11891,SID104194218,1.17,10.8,6729,6033,inactive
CG11889 + CG11891,SID104194219,5.1,5.56,7201,1224,inactive
CG11889 + CG11891,SID104204272,11,3.29,6451,5688,inactive
Su(H) (Suppressor of Hairless),SID104183237,15.7,2.55,4342,6830,inactive
CG12241,SID104194273,4.95,21.6,1475,5686,inactive
CG12241,SID104205186,4.45,2.44,6605,6242,inactive
CG42537,SID104192311,7.49,6.07,7139,6982,inactive
CG30037,SID104187097,9.02,14.3,6865,6311,inactive
Rae1,SID104184369,10.3,28.7,5644,4667,inactive
CG4907,SID104195465,0.85,1.02,5986,6459,inactive
CG8155,SID104186876,22.2,10.6,5533,6376,inactive
CG8155,SID104201260,2.36,3.1,5930,6485,inactive
CG8155,SID104206930,,19,435,4125,inactive
Rab18,SID104198494,3.34,2.6,6859,7070,inactive
Rab18,SID104205211,1.97,1.01,6049,6122,inactive
CG13386,SID104182052,3.25,3.66,6086,6610,inactive
CG13386,SID104207284,11.3,,3441,357,inactive
CG42675,SID104191949,11.9,4.39,5079,6168,inactive
CG42675,SID104201506,4.13,2.39,7049,838,inactive
CG42675,SID104203189,2.89,4.98,6231,6065,inactive
CG42675,SID104205121,1.57,8.84,6052,5846,inactive
IFT43 (Intraflagellar transport 43),SID104182684,22.6,10.7,6061,6155,inactive
CG11825,SID104185882,30.1,12.2,5734,3177,inactive
CG11825,SID104206324,13.7,21.4,6917,6326,inactive
Hers + amn,SID104200098,4.26,4.3,5253,5305,inactive
Cyp316a1 (Cytochrome P450 316a1),SID104190922,4.9,1.5,6158,5856,inactive
Cyp316a1 (Cytochrome P450 316a1),SID104207603,6.2,8.2,5270,5855,inactive
Trmt112 (tRNA methyltransferase subunit 11-2),SID104191477,5.58,3.77,6609,6571,inactive
CG33223,SID104197364,2.71,1.2,6237,6760,inactive
CG33223,SID104205419,3.45,8.64,6609,6610,inactive
Aplip1 (APPL-interacting protein 1),SID104188489,2.52,1.03,6340,6197,inactive
Aplip1 (APPL-interacting protein 1),SID104201294,18.2,5.55,6238,7065,inactive
Aplip1 (APPL-interacting protein 1),SID104204856,4.11,1.41,6883,6173,inactive
Rs1,SID104185737,7.34,5.34,6211,6335,inactive
Rs1,SID104205136,5.25,4.53,6171,5742,inactive
CG2641,SID104195233,10.5,17.7,3400,5202,inactive
